The record followed here is PMC12836348, “Alanine Mutagenesis Identifies Specific Amino Acids of Nemertide Alpha‑1 Activity and Its Binding to Target Receptors” (Journal of Natural Products, 2025).

Assay [1] concerns the target T1, rNaV1.3 (Rattus norvegicus, UniProt P08104).
T1 construct: expressed in transfected cells; host or cells: Xenopus laevis oocytes (cRNA injection)
Description: Two-electrode voltage clamp, Nav1.3 in Xenopus laevis oocytes. Format: cell-based. More on the design: key to effect on Nav1.3: “+” means tested and produced effect; “–“ means tested but no effect. Particulars: S12A at 5 μM; Xenopus oocytes, n ≥ 3. On the technique in general: In two-electrode clamp one electrode senses voltage and the other passes current.

Assay [2] concerns the target T2, hNav1.7 (Homo sapiens, UniProt Q15858).
T2 construct: expressed in transfected cells; host or cells: Xenopus laevis oocytes (cRNA injection)
The experiment in a line: Two-electrode voltage clamp, Nav1.7 in Xenopus laevis oocytes. It is filed as cell-based. More on the design: key to effect on Nav1.7: “+” means tested and produced effect; “–“ means tested but no effect. To be noted: S12A at 5 μM; Xenopus oocytes, n ≥ 3.

Assay [3] deals with T3, rNaV1.4 (Rattus norvegicus, UniProt P15390).
T3 construct: expressed in transfected cells; host or cells: Xenopus laevis oocytes (cRNA injection)
Description: Two-electrode voltage clamp, Nav1.4 in Xenopus laevis oocytes. It is filed as cell-based. More on the design: key to effect on Nav1.4: “+” means tested and produced effect; “–“ means tested but no effect. Particulars: S12A at 5 μM; Xenopus oocytes, n ≥ 3.

In assay [4] the target is T4, hNav1.1 (Homo sapiens, UniProt P35498).
T4 construct: expressed in transfected cells; host or cells: Xenopus laevis oocytes (cRNA injection)
The experiment in a line: Two-electrode voltage clamp, Nav1.1 in Xenopus laevis oocytes. It is filed as cell-based. To be noted: S12A at 5 μM; Xenopus oocytes, n ≥ 3. More on the design: key to effect on Nav1.1: “+” means tested and produced effect; “–“ means tested but no effect.

Assay [5] addresses T5, rNaV1.2 (Rattus norvegicus, UniProt P04775).
T5 construct: expressed in transfected cells; host or cells: Xenopus laevis oocytes (cRNA injection)
Description: Two-electrode voltage clamp, Nav1.2 in Xenopus laevis oocytes. Format: cell-based. More on the design: key: “+” means tested and produced effect; “–“ means tested but no effect. Particulars: S12A at 5 μM, n ≥ 3.

In assay [6] the test system is BgNav1. The experiment in a line: Two-electrode voltage clamp, BgNav1 expressed in Xenopus laevis oocytes. It is filed as cell-based, Blattella germanica. More on the design: key to effect on BgNav: “+” means tested and produced effect; “–“ means tested but no effect.

Where “and” joins values, the source holds several entries; their conditions need not be identical. Equal values may be shown once.

`CC[C@H](C)[C@@H]1NC(=O)[C@@H](NC(=O)CN)CSSC[C@@H]2NC(=O)[C@@H]3CSSC[C@@H](C(=O)N[C@@H](CC(N)=O)C(=O)N4C[C@H](O)C[C@H]4C(=O)N4C[C@H](O)C[C@H]4C(=O)N[C@@H](CC(N)=O)C(=O)N[C@@H](CCC(N)=O)C(=O)O)NC(=O)[C@H](CCCCN)NC(=O)[C@H](Cc4ccccc4)NC(=O)[C@H](CC(N)=O)NC(=O)[C@H](Cc4c[nH]c5ccccc45)NC(=O)CNC(=O)[C@H](CSSC[C@H](NC(=O)[C@H](Cc4ccccc4)NC(=O)[C@H](CO)NC(=O)CNC(=O)[C@H]([C@@H](C)O)NC(=O)[C@H](C)NC1=O)C(=O)N[C@@H]([C@@H](C)O)C(=O)N[C@@H](CC(C)C)C(=O)N[C@@H](C)C(=O)N[C@@H](CCCCN)C(=O)NCC(=O)N3)NC(=O)[C@H](CC(N)=O)NC(=O)[C@H](CCCCN)NC(=O)[C@H]([C@@H](C)O)NC2=O` [Peptide S12A]: the “effect on Nav1.3” value in assay [1] is “–”. In addition, in assay [2], the “effect on Nav1.7” value was “–”. Moreover, the “effect on Nav1.4” value in assay [3] is recorded as “–”. The “effect on Nav1.1” value in assay [4] is recorded as “–”. The “effect on Nav1.2” value in assay [5] is given as “–”. In addition, the “fold increase in EC50 on BgNav1 relative to alpha-1 (times lower activity)” value in assay [6] is 33 fold and 28 fold. In addition, the “effect on BgNav” value in assay [6] (S12A at 5 μM, Xenopus oocytes, n ≥ 3) was “+”.
